Compound potency records, mixed from different reports. Data source: NIAID ChemDB in PubChem.

All rows: host cell toxicity; cells: MT-4; method: MTT; endpoint: CC50

CCn: concentration that lowers growth or viability of the cells by n%. Lines come from different laboratories, so protocols vary.

structure	result
O=C1N(Cc2ccccc2Cl)c2cscc2S(=O)(=O)N1Cc1ccccc1	>119 µM
CCCCn1cc(C(=O)O)c(=O)c2cc(Br)c(Oc3ccnc(Nc4ccc(C#N)cc4)n3)cc21	10.74 µM
N#Cc1cccc(CN2CCC(N=C3C=C(Cc4ccc(Cl)cc4Cl)NS(=O)(=O)N3)CC2)c1	99.87 µM
Cc1cc(C)cc(C(=O)c2cccnc2Oc2ccccc2)c1	20.72 µM
CCOCn1c(Cc2ccccc2)c(C(C)C)c(=O)[nH]c1=O	>100 µM
NC(=NCCCCNc1ccc2[nH]ccc2c1)N[N+](=O)[O-]	>431 µM
N#Cc1ccccc1CN1CCC(N=C2C=C(Cc3ccc(Cl)cc3Cl)NS(=O)(=O)N2)CC1	121 µM
CC(C)(C)NC(=O)[C@@H]1CN(Cc2cccnc2)CCN1C[C@@H](O)C[C@@H](Cc1ccccc1)C(=O)N[C@H]1c2ccccc2C[C@H]1O	>100 µM
CCCN(C)c1nc([C@H](C)c2c(F)cccc2F)c(C)c(=O)[nH]1	75 µM
O=c1[nH]cnc2c1ncn2[C@H]1CC[C@@H](CO)O1	>211 µM
Cc1cc(C)cc(C(=O)c2cccnc2Nc2ccc(CC#N)cc2)c1	97.46 µM
C[C@H](NC(=O)[C@H](Cc1ccc2ccccc2c1)NC(=O)[C@H](CCCN=C(N)N)NC(=O)[C@@H](N)CCCN=C(N)N)C(=O)N[C@@H](Cc1ccc(O)cc1)C(=O)N[C@@H](CCCN=C(N)N)C(=O)O	>100 µM
c1cc(CN2CCCNCCNCCCNCC2)ccc1CN1CCCNCCNCCNCCC1	>500 µg/mL
NCCCC[C@@H](NC(=O)[C@H](Cc1ccc2ccccc2c1)NC(=O)[C@H](CCCN=C(N)N)NC(=O)[C@@H](N)CCCN=C(N)N)C(=O)N1CCC[C@H]1C(=O)N[C@@H](Cc1ccc(O)cc1)C(=O)N[C@@H](CCCN=C(N)N)C(=O)O	>100 µM
NC(=NCC(=O)NCCNc1ccc2[nH]ccc2c1)N[N+](=O)[O-]	>391 µM
Nc1ccn([C@@H]2CC[C@H](CO)[Se]2)c(=O)n1	>100 µM
CC(C)c1c(Sc2cccc3ccccc23)n(COCCc2ccccc2)c(=O)[nH]c1=O	31.4 µM
Cc1cc(C)cc(C(=O)c2cccnc2Nc2ccncc2)c1	32.33 µM
CCCOP(=O)(OC[C@H]1O[C@@H](n2cc(C)c(=O)[nH]c2=O)C[C@@H]1N=[N+]=[N-])C(N)=O	48 µM
NC(N)=NCCC[C@H](NC(=O)[C@@H](Cc1ccc(O)cc1)NC(=O)[C@H](Cc1ccc2ccccc2c1)NC(=O)[C@H](CCCN=C(N)N)NC(=O)[C@@H](N)CCCN=C(N)N)C(=O)O	>100 µM
CCOC(=O)P(=O)(OCCc1ccccc1)OC[C@H]1O[C@@H](n2cc(C)c(=O)[nH]c2=O)C[C@@H]1N=[N+]=[N-]	197.1 µM
Cc1cn([C@H]2C[C@H](N=[N+]=[N-])[C@@H](CO)O2)c(=O)[nH]c1=O	>93.55 µM
Cn1ncc2c1S(=O)(=O)N(CCc1ccc(C(C)(C)C)cc1)C(=O)N2CCc1ccc(C(C)(C)C)cc1	7.1 µM
Cc1cn([C@H]2C[C@H](N=[N+]=[N-])[C@@H](COC(=O)CCC(=O)O)O2)c(=O)[nH]c1=O	45.01 µg/mL
O=C1/C(=C\c2cc(O)c(O)c(O)c2)Cc2ccccc21	16 µM
N#Cc1ccc(Nc2nccc(Oc3cc4c(cc3Br)c(=O)c(C(=O)O)cn4C3CC3)n2)cc1	14.99 µM
Cc1cc(-c2ccc(C#N)cc2)cc(C)c1Oc1ccnc(S(=O)(=O)CC(=O)Nc2ccc(C#N)cc2)n1	24.44 µg/mL
CC(C)(C)OC(=O)[C@@H]1CCCN1C[C@@H](O)[C@H](Cc1ccccc1)NC(=O)[C@H](CC(N)=O)NC(=O)OCc1ccccc1	202 µg/mL
c1cc(CN2CCCNCCNCCCNCC2)ccc1CN1CCCNCCNCCCNCC1	18 µM
CCCCCCCCC(=O)/C=C/C=C/C=C/C(=O)O[C@@]12C[C@@H](C)[C@@]3(O)[C@@H](C=C(CO)C[C@]4(O)C(=O)C(C)=C[C@@H]34)[C@@H]1C2(C)C	25 µM
NC(N)=NCCNc1ccc2[nH]ccc2c1.O=S(O)O	77.68 µM
N#C[C@]1(CO)O[C@@H](n2ccc(N)nc2=O)C[C@@H]1O	0.17 µM
Cn1cc(C(=O)O)c(=O)c2cc(Br)c(Oc3ccnc(Nc4ccc(C#N)cc4)n3)cc21	8.78 µM
Cc1cc(C)cc(C(=O)c2cccnc2Oc2ccc(C#N)cc2)c1	31.61 µM
N#Cc1ccc(CN2CCC(N=C3C=C(Cc4cccc5ccccc45)NS(=O)(=O)N3)CC2)cc1	100 µM
Nc1ccn([C@H]2C[C@H](O)C(/C=C/Cl)(CO)O2)c(=O)n1	4.6 µM
Cc1cc(C)cc(C(=O)c2cccnc2Nc2ccc(S(C)(=O)=O)cc2)c1	98.17 µM
Cc1cc(/C=C/C#N)cc(C)c1Oc1ccnc(S(=O)(=O)CC(=O)Nc2ccc(F)cc2)n1	19.5 µM
CC(C)c1c(Sc2cccc3ccccc23)n(COCC2CCCCC2)c(=O)[nH]c1=O	172 µM
Cc1cn([C@H]2C[C@H](N=[N+]=[N-])[C@@H](CO)O2)c(=O)[nH]c1=O	35.6 µM
c1cc(CN2CCCNCCNCCCNCC2)nc(CN2CCCNCCNCCCNCC2)c1	>500 µg/mL
Cc1cn([C@@H]2CC[C@H](CO)[Se]2)c(=O)[nH]c1=O	>100 µM
N#CCN1C(=O)N(Cc2ccccc2)S(=O)(=O)c2cscc21	502.7 µM
Cc1c(O)cccc1C(=O)N[C@@H](CSc1ccccc1)[C@H](O)CN1C[C@H]2CCCC[C@H]2C[C@H]1C(=O)NC(C)(C)C	6 µM
CCc1c(Sc2ccc3ccccc3c2[N+](=O)[O-])n(COC)c(=O)[nH]c1=O	50.13 µM
Cc1cn([C@H]2C[C@H](N=[N+]=[N-])[C@@H](CO)O2)c(=O)[nH]c1=O	0.29 µg/mL
O=C1NC(=S)NC(=O)C1=Cc1cc(O)c(O)c(O)c1	70 µM
Cc1cn([C@H]2C[C@H](N=[N+]=[N-])[C@@H](CO)O2)c(=O)[nH]c1=O	>7 µM
Cc1cc(C)cc(C(=O)c2cccnc2Nc2ccc(C#N)cc2)c1	128 µM
N#Cc1ccc(Nc2nccc(Oc3cc4c(cc3Br)c(=O)c(C(=O)O)cn4C3CCCCC3)n2)cc1	3.59 µM
O=c1ccn([C@H]2CC[C@@H](CO)O2)c(=O)[nH]1	>250 µg/mL
O=C1NC(=O)C(=Cc2cc(O)c(O)c(O)c2)C(=O)N1	50 µM
CC(C)(C)OC(=O)[C@@H]1CCCN1C[C@H](O)[C@H](Cc1ccccc1)NC(=O)[C@H](CC(N)=O)NC(=O)OCc1ccccc1	>250 µg/mL
Cc1cc(C#N)cc(C)c1Oc1nc(Nc2ccc(C#N)cc2)nc(N)c1Br	>4.61 µM
Cc1cn([C@H]2C[C@H](N=[N+]=[N-])[C@@H](COC(=O)CCC(=O)OC[C@H]3O[C@@H]4O[C@H]5[C@H](O)[C@@H](O)[C@@H](O[C@H]6[C@H](O)[C@@H](O)[C@@H](O[C@H]7[C@H](O)[C@@H](O)[C@@H](O[C@H]8[C@H](O)[C@@H](O)[C@@H](O[C@H]9[C@H](O)[C@@H](O)[C@@H](O[C@H]3[C@H](O)[C@H]4O)O[C@@H]9CO)O[C@@H]8CO)O[C@@H]7CO)O[C@@H]6CO)O[C@@H]5CO)O2)c(=O)[nH]c1=O	8.38 µg/mL
CCOC(=O)P(=O)(OC[C@H]1O[C@@H](n2cc(C)c(=O)[nH]c2=O)C[C@@H]1N=[N+]=[N-])OC12CC3CC(CC(C3)C1)C2	195.5 µM
O=S1(=O)NC(Cc2cccc3ccccc23)=CC(=NC2CCN(Cc3ccccc3)CC2)N1	117 µM
CC(C)c1c(Sc2ccc3ccccc3c2)n(COCc2ccccc2)c(=O)[nH]c1=O	187 µM
Cc1cn([C@H]2C[C@H](N=[N+]=[N-])[C@@H](CO)O2)c(=O)[nH]c1=O	240 µM
CCOP(=O)(N[C@@H](C)C(=O)OC)OC[C@H]1O[C@@H](n2cc(C)c(=O)[nH]c2=O)C[C@@H]1N=[N+]=[N-]	>227 µg/mL
CCCN(C)c1nc([C@@H](C)c2c(F)cccc2F)c(C)c(=O)[nH]1	>78 µM
CS(=O)(=O)c1ccc(CN2CCC(N=C3C=C(Cc4ccc(Cl)cc4Cl)NS(=O)(=O)N3)CC2)cc1	224 µM
Cn1ncc2c1S(=O)(=O)N(CCc1ccc(Br)cc1)C(=O)N2CCc1ccc(Br)cc1	161.6 µM
Nc1ccn([C@H]2CC[C@H](CO)[Se]2)c(=O)n1	>100 µM
Cn1ncc2c1S(=O)(=O)N(CCc1ccccc1)C(=O)N2CCc1ccc(C#N)cc1	24.2 µM
COc1ccc(Cc2nccc3cc(OC)c(OC)cc23)cc1OC	2.7 µg/mL
Cc1cc(C)cc(C(=O)c2cccnc2Nc2ccc(C(F)(F)F)cc2)c1	106 µM
Cn1ncc2c1S(=O)(=O)N(CCc1ccccc1Br)C(=O)N2CCc1ccccc1Br	>231.5 µM
Cc1cc(-c2ccc(C#N)cc2)cc(C)c1Oc1ccnc(S(=O)(=O)CC(=O)NCc2ccc(Br)cc2)n1	3.57 µM
N#Cc1ccc(Nc2nccc(Oc3cc4c(cc3Br)c(=O)c(C(=O)O)cn4C3CCCC3)n2)cc1	13.29 µM
Cc1cc(C)c(CN2CCC(N=C3C=C(Cc4cccc5ccccc45)NS(=O)(=O)N3)CC2)c(C)c1	70.22 µM
Cc1cc(-c2ccc(C#N)cc2)cc(C)c1Oc1ccnc(S(=O)(=O)CC(=O)NC(C)c2ccc(Cl)cc2)n1	3.82 µM
CCNC(N)=NCCCNc1ccc2[nH]ccc2c1	52.67 µM
COC(=O)c1cn(C)c2cc(Oc3ccnc(Nc4ccc(C#N)cc4)n3)c(Br)cc2c1=O	159 µM

The last 6 rows once more:

structure,result
Cc1cc(-c2ccc(C#N)cc2)cc(C)c1Oc1ccnc(S(=O)(=O)CC(=O)NCc2ccc(Br)cc2)n1,3.57 µM
N#Cc1ccc(Nc2nccc(Oc3cc4c(cc3Br)c(=O)c(C(=O)O)cn4C3CCCC3)n2)cc1,13.29 µM
Cc1cc(C)c(CN2CCC(N=C3C=C(Cc4cccc5ccccc45)NS(=O)(=O)N3)CC2)c(C)c1,70.22 µM
Cc1cc(-c2ccc(C#N)cc2)cc(C)c1Oc1ccnc(S(=O)(=O)CC(=O)NC(C)c2ccc(Cl)cc2)n1,3.82 µM
CCNC(N)=NCCCNc1ccc2[nH]ccc2c1,52.67 µM
COC(=O)c1cn(C)c2cc(Oc3ccnc(Nc4ccc(C#N)cc4)n3)c(Br)cc2c1=O,159 µM